Anti-infective test results gathered from many reports (values: NIAID ChemDB through PubChem).

Shared fields: whole-cell or culture tests; agent: Staphylococcus aureus

Neighbouring rows are from separate reports.

SMILES,strain or isolate,measure,value
O=C(O)NC[C@H]1CC(c2ccc(-n3cccc3)c(F)c2)=NO1,UC9213,MIC,2 µg/mL
CC[C@H]1OC(=O)[C@@](C)(F)C(=O)[C@H](C)[C@@H](O[C@@H]2O[C@H](C)C[C@H](N(C)C)[C@H]2O)[C@@]2(C)C[C@@H](C)C(=NC(C)=O)[C@H](C)[C@@H](OC/C(=N\OCc3ccc(-c4csnn4)nc3)CO2)[C@]1(C)O,27660 (erythromycin A -resistant),MIC,0.25 µg/mL
CCCCCCCC[N+](C)(C)COCCC(C)CCCC(C)C,ATCC33592,MBC,137 µM
CO/N=C1\CN(c2nc3c(cc2F)c(=O)c(C(=O)O)cn3C2CC2)CC1CN,9 isolates (methicillin-susceptible),MIC90,0.25 µg/mL
COC(=O)N1CC=C(c2ccc(C3=NO[C@H](CNC(=O)O)C3)cc2)CC1,UC9213,MIC,>16 µg/mL
CC[C@H]1OC(=O)[C@@](C)(F)C(=O)[C@H](C)[C@@H](O[C@@H]2O[C@H](C)C[C@H](N(C)C)[C@H]2O)[C@@]2(C)C[C@@H](C)C(=NC(C)=O)[C@H](C)[C@@H](OC/C(=N\OCc3ccc(C(N)=O)cc3)CO2)[C@]1(C)O,29213 (erythromycin A-susceptible),MIC,0.13 µg/mL
Cn1cc(C(=O)O)c(=O)c2cc3cc(F)c(N4CCN(Cc5ccc(F)cc5)CC4)cc3nc21,LF11C128 (quinolone-resistant),MIC,1 µg/mL
O=C(C(O)Sc1ccccn1)N1CC=C(c2c(F)cc(N3C[C@H](COc4ccon4)OC3=O)cc2F)CC1,078 (oxford),MIC,0.5 µg/mL
O=C(CO)N1CCN(c2ccc(N3C[C@H](CNc4ccon4)OC3=O)cc2F)CC1,004 (methicillin quinolone-resistant),MIC,2 µg/mL
CCCCCCCCCCCC[N+](C)(C)COCCC(C)C,ATCC33592,MIC,7.14 µM
CC[C@H]1OC(=O)[C@@](C)(F)C(=O)[C@H](C)[C@@H](O[C@@H]2O[C@H](C)C[C@H](N(C)C)[C@H]2O)[C@@]2(C)C[C@@H](C)C(=O)[C@H](C)[C@@H](OC/C(=N\OCc3ccc(-n4cccn4)nc3)CO2)[C@]1(C)O,33591 (erythromycin methicillin-resistant),MIC,>64 µg/mL
CC(O)C(=O)N1CC=C(c2ccc(N3C[C@H](COc4cnsn4)OC3=O)cc2F)CC1,004 (methicillin quinolone-resistant),MIC,0.25 µg/mL
CC[C@H]1OC(=O)[C@H](C)C(=O)[C@H](C)[C@@H](O[C@@H]2O[C@H](C)C[C@H](N(C)C)[C@H]2O)[C@@]2(C)C[C@@H](C)C(=NC(C)=O)[C@H](C)[C@@H](OC/C(=N\OCCc3ccccc3)CO2)[C@]1(C)O,25923 (erythromycin-susceptible),MIC,0.5 µg/mL
CC[C@H]1OC(=O)[C@@](C)(F)C(=O)[C@H](C)[C@@H](O[C@@H]2O[C@H](C)C[C@H](N(C)C)[C@H]2O)[C@@]2(C)C[C@@H](C)C(=NC(C)=O)[C@H](C)[C@@H](OC/C(=N\OCc3ccc(-c4ncccn4)s3)CO2)[C@]1(C)O,29213 (erythromycin A-susceptible),MIC,0.25 µg/mL
CCCCCCCCCOC[N+](C)(C)CCCCCCCC,ATCC33592,MIC,14.3 µM
Cn1cc(C(=O)O)c(=O)c2cc3cc(F)c(N4CCCCCCC4)cc3nc21,LF11C128 (quinolone-resistant),MIC,1 µg/mL
O=C1O[C@@H](COc2cnccn2)CN1c1ccc(C2=CCOCC2)c(F)c1,004 (methicillin quinolone-resistant),MIC,0.5 µg/mL
COc1ccc(-c2ccc(N3CC(CNC(C)=O)CC3=O)cc2)ccc1=O,UC 12673,MIC,>64 µg/mL
O=C1O[C@@H](COc2ccon2)CN1c1ccc(-n2cnc(CO)c2)c(F)c1,004 (methicillin quinolone-resistant),MIC,4 µg/mL
CCCCCCCCCCCC[N+](C)(C)COCCCCCCC,ATCC 6538,MIC,1.32 µM
Cc1c(NCCCO)c(F)cc2c(=O)c(C(=O)O)cn(-c3cc(N)c(F)cc3F)c12,27 isolates,Mean MIC,0.025 µg/mL
CC[C@H]1OC(=O)[C@H](C)C(=O)[C@H](C)[C@@H](O[C@@H]2O[C@H](C)C[C@H](N(C)C)[C@H]2O)[C@](C)(OC)C[C@@H](C)C(=O)[C@H](C)[C@H]2N(CCCCn3cnc(-c4cccnc4)c3)C(=O)O[C@]12C,25923 (erythromycin-susceptible),MIC,0.13 µg/mL
CC[C@H]1OC(=O)[C@@](C)(F)C(=O)[C@H](C)[C@@H](O[C@@H]2O[C@H](C)C[C@H](N(C)C)[C@H]2O)[C@@]2(C)C[C@@H](C)C(=NC(C)=O)[C@H](C)[C@@H](OC/C(=N\OCc3cccc(C(N)=O)c3)CO2)[C@]1(C)O,33591 (erythromycin methicillin-resistant),MIC,>64 µg/mL
O=C1O[C@@H](CNc2ccon2)CN1c1ccc(N2CCOCC2)c(F)c1,078 (oxford),MIC,0.5 µg/mL
COc1ccc(-c2ccc(C3=CC(CNC(C)=O)OC3=O)cc2)ccc1=O,UC9213,MIC,2 µg/mL
CCNc1c(F)cc2c(=O)c(C(=O)O)cn(-c3cc(N)c(F)cc3F)c2c1C,SMITH,MIC,<0.004 µg/mL
CC[C@H]1OC(=O)[C@H](C)[C@@H](O[C@H]2C[C@@](C)(OC)[C@@H](O)[C@H](C)O2)[C@H](C)[C@@H](O[C@H]2O[C@@H](C)C[C@@H](N(C)C)[C@@H]2O)[C@](C)(O)C[C@@H](C)C(=O)[C@H](C)[C@@H](O)[C@]1(C)O,27660 (erythromycin-resistant),MIC,>64 µg/mL
O=C(C(O)Cn1cccc1)N1CC=C(c2ccc(N3C[C@H](COc4ccon4)OC3=O)cc2F)CC1,004 (methicillin quinolone-resistant),MIC,2 µg/mL
CC[C@H]1OC(=O)[C@@](C)(F)C(=O)[C@H](C)[C@@H](O[C@@H]2O[C@H](C)C[C@H](N(C)C)[C@H]2O)[C@@]2(C)C[C@@H](C)C(=N)[C@H](C)[C@@H](OC/C(=N\OCc3ccc(-c4nccs4)nc3)CO2)[C@]1(C)O,27660 (erythromycin A -resistant),MIC,0.25 µg/mL
CCCCCCCCCCCC[N+](C)(C)COC(C)C,ATCC 6538,MIC,9.32 µM
CC[C@H]1OC(=O)[C@H](C)C(=O)[C@H](C)[C@@H](O[C@@H]2O[C@H](C)C[C@H](N(C)C)[C@H]2O)[C@@]2(C)C[C@@H](C)C(=NC(C)=O)[C@H](C)[C@@H](OC/C(=N\OCC#Cc3ncccn3)CO2)[C@]1(C)O,33591 (erythromycin methicillin-resistant),MIC,>64 µg/mL
Cc1cn(-c2ccc(N3C[C@H](CNc4ccon4)OC3=O)cc2F)cn1,122 (novobiocin-resistant),MIC,0.5 µg/mL
CNc1c(F)cc2c(=O)c(C(=O)O)cn(-c3cc(N)c(F)cc3F)c2c1C,27 isolates,Mean MIC,0.007 µg/mL
O=C1O[C@@H](COc2ccncn2)CN1c1ccc(C2=CCOCC2)c(F)c1,078 (oxford),MIC,1 µg/mL
CC[C@H]1OC(=O)[C@@](C)(F)C(=O)[C@H](C)[C@@H](O[C@@H]2O[C@H](C)C[C@H](N(C)C)[C@H]2O)[C@@]2(C)C[C@@H](C)C(=NC(C)=O)[C@H](C)[C@@H](OC/C(=N\OCc3ccc(-c4nccs4)nc3)CO2)[C@]1(C)O,29213 (erythromycin A-susceptible),MIC,0.5 µg/mL

The last 3 rows once more:

SMILES | strain or isolate | measure | value
CNc1c(F)cc2c(=O)c(C(=O)O)cn(-c3cc(N)c(F)cc3F)c2c1C | 27 isolates | Mean MIC | 0.007 µg/mL
O=C1O[C@@H](COc2ccncn2)CN1c1ccc(C2=CCOCC2)c(F)c1 | 078 (oxford) | MIC | 1 µg/mL
CC[C@H]1OC(=O)[C@@](C)(F)C(=O)[C@H](C)[C@@H](O[C@@H]2O[C@H](C)C[C@H](N(C)C)[C@H]2O)[C@@]2(C)C[C@@H](C)C(=NC(C)=O)[C@H](C)[C@@H](OC/C(=N\OCc3ccc(-c4nccs4)nc3)CO2)[C@]1(C)O | 29213 (erythromycin A-susceptible) | MIC | 0.5 µg/mL

A number after MIC or MFC names an inhibition level or a share of isolates.